Measurements reported in ChEMBL document CHEMBL5725581, “Compounds and compositions for treating HIV with derivatives of Betulin” (2018).

Experiment: MT4 Cell Antiviral Assay: Antiviral HIV activity and compound-induced cytotoxicity were measured in parallel by means of a propidium iodide based procedure in the human T-cell lymphotropic virus transformed cell line MT4. Aliquots of the test compounds were serially diluted in medium (RPMI 1640, 10% fetal calf serum (FCS), and gentamycin) in 96-well plates (Costar 3598) using a Cetus Pro/Pette. …

Structure (SMILES)	EC50 [nM]	EC50 (MT4, 10 min) [nM]
CC(C)C1=C2[C@H]3CC[C@@H]4[C@@]5(C)CC[C@H](OC(=O)CC(C)(C)C(=O)O)C(C)(C)[C@@H]5CC[C@@]4(C)[C@]3(C)CC[C@@]2([C@@H](O)CN(CCN(C)C)Cc2cccc(Cl)c2F)CC1=O	3.4	
CC(C)C1=C2[C@H]3CC[C@@H]4[C@@]5(C)CC[C@H](OC(=O)CC(C)(C)C(=O)O)C(C)(C)[C@@H]5CC[C@@]4(C)[C@]3(C)CC[C@@]2([C@H](O)CN(CCN(C)C)Cc2cccc(Cl)c2F)CC1=O		4.2
